Measured values from several laboratories, pooled; numbers as filed in NIAID ChemDB.

Common to all: tests in culture; agent: HIV-1

Blank or dashed fields: not listed here. Conditions beyond the fields shown may differ between rows. ECn: concentration that inhibits the pathogen or its effect by n%.

SMILES | measure | changes | method | setting | cell line | strain | value
CC(=O)SCCOP(=O)(OCCSC(C)=O)OC[C@@H]1CC[C@H](n2cnc3c(N)ncnc32)O1 | EC50 | - | RT activity | - | CEM + CEM-SS | LAI | 0.00056 µM
CC(=O)O[C@@H]1[C@H](OC(=O)CC(C)C)c2c(ccc3ccc(=O)oc23)OC1(C)C | EC50 | - | p24 | 18 d | Monocytes | - | <20 µg/mL
Cc1cn([C@H]2C[C@H](N=[N+]=[N-])[C@@H](CO)O2)c(=O)[nH]c1=O | EC50 | F227L and V106A | MTT | - | MT-4 | IIIB | 0.007 µM
Cc1cn([C@H]2C[C@H](N=[N+]=[N-])[C@@H](CO)O2)c(=O)[nH]c1=O | EC50 | - | p24 | - | MT-2 | MN | 0.007 µM
C#C[C@]1(CO)O[C@@H](n2cnc3c(N)nc(F)nc32)CC1O | EC50 | - | β-galactosidase / absorbance | - | MAGIC-5A | NL4-3 | 0.002 µM
C#Cc1ccc(Nc2nccc(Oc3c(C)cc(-c4cn(Cc5ccc(S(N)(=O)=O)cc5)nn4)cc3C)n2)cc1 | EC50 | - | MTT | - | MT-4 | RES056 | >86.44 µM
Cc1cn([C@H]2C[C@H](N=[N+]=[N-])[C@@H](COC(=O)C(=O)O)O2)c(=O)[nH]c1=O | EC50 | - | p24 | - | PBMC | IIIB | 0.025 µM
O=c1[nH]cnc2c1ncn2[C@H]1CC[C@@H](CO)O1 | EC50 | - | syncytia | - | CEM | IIIB | 1.8 µg/mL
Cc1cc(C#N)cc(C)c1Oc1nc(Nc2ccc(C#N)cc2)ncc1SCC(=O)N1CCSCC1 | EC50 | L100I | MTT | - | MT-4 | - | 0.3745 µM
Cc1cn([C@H]2C[C@H](N=[N+]=[N-])[C@@H](CO)O2)c(=O)[nH]c1=O | EC50 | - | cytopathic effect / MTT | - | MT-4 | IIIB | 0.0032 µM
Cc1cn([C@H]2C[C@H](N=[N+]=[N-])[C@@H](CO)O2)c(=O)[nH]c1=O | EC50 | Y188L | MTT | - | MT-4 | - | 0.0147 µM
O=c1[nH]cnc2c1ncn2[C@H]1CC[C@@H](CO)O1 | EC50 | - | p24 | - | PBMC | NL-XM WT | <28 µM
O=C1Nc2cccnc2N(C2CC2)c2ncccc21 | EC50 | - | cytopathic effect / MTT | - | MT-4 | IIIB | 1 µM
CCC(C)Oc1cc(=O)[nH]c(Sc2ccccc2Cl)n1 | EC50 | - | cytopathic effect / MTT | - | MT-4 | IIIB | 25 µM
Cc1cn([C@H]2C[C@H](N=[N+]=[N-])[C@@H](CO)O2)c(=O)[nH]c1=O | EC90 | RT-M184V | p24 | - | PBMC | RT-M184V XM-M184V | 0.02 µM
C#Cc1ccc(Nc2nccc(Oc3c(C)cc(-c4cn(Cc5ccccc5[N+](=O)[O-])nn4)cc3C)n2)cc1 | EC50 | - | MTT | - | MT-4 | IIIB | 0.048 µM
NS(=O)(=O)c1cccc(CN2C(=O)N(Cc3cccc(S(N)(=O)=O)c3)N(Cc3ccccc3)C[C@@H](O)[C@H]2Cc2ccccc2)c1 | EC50 | - | cytopathic effect / MTT | - | MT-4 | IIIB | 0.39 µM
O=c1[nH]cnc2c1ncn2[C@H]1CC[C@@H](CO)O1 | EC50 | - | RT activity | - | CEM + CEM TK- | LAI | 0.95 µM
S=c1[nH]c2cc(Cl)cc3c2n1CCN1CCCCC31 | EC50 | - | cytopathic effect / MTT | - | MT-4 | IIIB | >200 µM
CCC(C)Oc1cc(=O)[nH]c(S(=O)(=O)c2cccc(C)c2)n1 | EC50 | - | cytopathic effect / MTT | - | MT-4 | IIIB | >70 µM
C[C@H](Cn1cnc2c(=O)[nH]c(N)nc21)OCP(=O)(O)O | EC50 | - | - | - | - | - | 1.5 µM
CC(=O)SCCOP(=O)(OCCSC(C)=O)OC[C@@H]1CC[C@H](n2cc(C)c(=O)[nH]c2=O)O1 | EC50 | - | RT activity | - | CEM + CEM TK- | LAI | 0.5 µM
Cc1ccnc2c1NC(=O)c1cccnc1N2C1CC1 | EC50 | Y188L | MTT | - | MT-4 | IIIB | >15.02 µM
CC(=O)c1ccc(C)cc1NC(C(N)=O)c1c(Cl)cccc1Cl | EC50 | - | cytopathic effect / MTT | - | MT-4 | IIIB | 0.013 µM
CC(C)=CCOc1cc(NC(=S)c2ccoc2C)ccc1Cl | EC50 | RT-L100I | XTT | - | CEM + CEM-SS | Dihydrocostatolide-resistant (RT-L100I) | 0.3 µM
CCC(C)Oc1cc(N)nc(S(=O)(=O)c2cccc(C)c2)n1 | EC50 | - | cytopathic effect / MTT | - | MT-4 | IIIB | >97 µM
C[C@@H]1CN2CCC[C@@H]3CCCCC[C@@H]4C(=O)[C@@H](C)CN5CCC[C@@H](CCCCC[C@@H](C1=O)[C@H]32)[C@H]45 | EC50 | - | p24 | - | MT-2 | MN | 52.98 µM
CC1(C)Oc2ccc3ccc(=O)oc3c2[C@@H](OC(=O)C23CCC(C)(C(=O)O2)C3(C)C)[C@H]1OC(=O)C12CCC(C)(C(=O)O1)C2(C)C | EC50 | - | p24 | 17 d | Monocytes | - | <0.000016 µM
CCCc1cc(=O)oc2c3c(c4c(c12)OC(C)(C)C=C4)O[C@H](C)[C@@H](C)[C@@H]3O | EC50 | RT-K103N Y181C | XTT | - | CEM + CEM-SS | Pyridinone-resistant (RT K103N Y181C) | 0.12 µM
C#Cc1ccc(Nc2nccc(Oc3c(C)cc(-c4cn(Cc5ccc(C#N)cc5)nn4)cc3C)n2)cc1 | EC50 | K103N | MTT | - | MT-4 | IIIB | 0.42 µM
CC(C)OC(=O)OCOP(=O)(CO[C@H](C)Cn1cnc2c(N)ncnc21)OCOC(=O)OC(C)C | EC50 | - | β-galactosidase / absorbance | - | MAGIC-5A | NL4-3 | 0.013 µM
Cc1cn([C@H]2C[C@H](N=[N+]=[N-])[C@@H](CO)O2)c(=O)[nH]c1=O | EC50 | - | RT activity | - | Jurkat cells | LAV | <0.5 µM
Cc1ccnc2c1NC(=O)c1cccnc1N2C1CC1 | EC50 | - | RT activity | - | PBMC | CLADE D | 0.1 µM
C#Cc1ccc(Nc2nccc(Oc3c(C)cc(-c4cn(Cc5ccc(O)cc5)nn4)cc3C)n2)cc1 | EC50 | K103N | MTT | - | MT-4 | IIIB | 0.054 µM
CC(=O)ON1COC[C@H]2O[C@@H](n3cc(C)c(=O)[nH]c3=O)C[C@@H]21 | EC50 | - | trypan blue | - | MT-4 | IIIB | 15 µg/mL
Cc1occc1C(=S)Nc1ccc(Cl)c(/C=N/OC(C)(C)C)c1 | EC50 | - | XTT | - | CEM + CEM-SS | IIIB | 0.1 µM
Cc1cn([C@H]2C[C@H](N=[N+]=[N-])[C@@H](CO)O2)c(=O)[nH]c1=O | EC50 | - | cytopathic effect / trypan blue | - | MT-4 | AMR15 | 0.25 µM
Cc1cn([C@H]2C[C@H](N=[N+]=[N-])[C@@H](COC(=O)c3ccncc3)O2)c(=O)[nH]c1=O | EC50 | - | p24 | - | PBMC | IIIB | 0.025 µM
CCCc1cc(=O)oc2c3c(c4c(c12)OC(C)(C)C=C4)O[C@@H](C)[C@H](C)[C@@H]3O | EC50 | RT-A98G | XTT | - | CEM + CEM-SS | NL4-3 | 0.3 µM
Cc1cn([C@H]2CC[C@@H](CO)O2)c(=O)[nH]c1=O | EC50 | - | RT activity | - | CEM + CEM-SS | LAI | 4 µM
Nc1ccn([C@H]2CC[C@@H](CO)O2)c(=O)n1 | EC50 | - | p24 | - | H9 | IIIB | 0.0318 µM
CCC(C)Oc1cc(=O)n(C)c(Sc2ccccc2)n1 | EC50 | - | cytopathic effect / MTT | - | MT-4 | IIIB | >200 µM
Cc1cn([C@H]2C[C@H](N=[N+]=[N-])[C@@H](CO)O2)c(=O)[nH]c1=O | EC50 | - | p24 | - | MT-2 | IIIB | 0.015 µM
C#Cc1ccc(Nc2nccc(Oc3c(C)cc(-c4cn(CC(=O)Nc5ccc(F)cc5)nn4)cc3C)n2)cc1 | EC50 | - | MTT | - | MT-4 | IIIB | 1.66 µM
Cc1cn([C@H]2C[C@H](N=[N+]=[N-])[C@@H](COC(=O)C(=O)N[C@H](C(=O)O)C(C)C)O2)c(=O)[nH]c1=O | EC50 | - | p24 | - | MT-2 | IIIB | 0.025 µM
C#Cc1ccc(Nc2nccc(Oc3c(C)cc(-c4cn(-c5ccc(C(=O)O)cc5)nn4)cc3C)n2)cc1 | EC50 | L100I | MTT | - | MT-4 | IIIB | 0.77 µM

Repeating the final 4 entries:

SMILES,measure,changes,method,setting,cell line,strain,value
Cc1cn([C@H]2C[C@H](N=[N+]=[N-])[C@@H](CO)O2)c(=O)[nH]c1=O,EC50,-,p24,-,MT-2,IIIB,0.015 µM
C#Cc1ccc(Nc2nccc(Oc3c(C)cc(-c4cn(CC(=O)Nc5ccc(F)cc5)nn4)cc3C)n2)cc1,EC50,-,MTT,-,MT-4,IIIB,1.66 µM
Cc1cn([C@H]2C[C@H](N=[N+]=[N-])[C@@H](COC(=O)C(=O)N[C@H](C(=O)O)C(C)C)O2)c(=O)[nH]c1=O,EC50,-,p24,-,MT-2,IIIB,0.025 µM
C#Cc1ccc(Nc2nccc(Oc3c(C)cc(-c4cn(-c5ccc(C(=O)O)cc5)nn4)cc3C)n2)cc1,EC50,L100I,MTT,-,MT-4,IIIB,0.77 µM